Anti-infective test results gathered from many reports (values: NIAID ChemDB through PubChem).

All rows: whole-cell or culture tests; organism: Mycobacterium tuberculosis

Percent inhibition refers to the dose given; in toxicity tests it is the harm to the cells. MIC bound comes from a single tested concentration. Neighbouring rows are from separate reports. An empty or dashed field is not shown. A number after MIC or MFC names an inhibition level or a share of isolates. ECn is the concentration giving n% inhibition of infection, replication or growth.

SMILES | cell line | setting | endpoint | read by | strain | mutations | tested at | result
Cc1nc2scc(-c3ccco3)c2c(=O)n1NC(=O)c1ccc(Cl)cc1 | - | - | MIC | - | CNCTC MY331/88 | - | - | 9 µM
COC(=O)n1c(=O)nc2c3c(ncn21)Oc1c(c(-c2ccccc2)nn1-c1ccccc1)C3c1ccc(Cl)cc1 | VERO | - | MIC | resazurin | H37Rv | - | - | 6.25 µg/mL
COc1ccc(/C=N/n2c(C)nc3scc(-c4ccco4)c3c2=O)cc1 | - | - | MIC | - | CNCTC MY331/88 | - | - | 14 µM
S=C1SCN(CCc2c[nH]c3ccccc23)CN1CCc1c[nH]c2ccccc12 | - | - | MIC bound | BACTEC | H37Rv | - | - | >12.5 µg/mL
CCC(C(=O)O)c1ccccc1 | - | - | MIC | - | - | - | - | >1000 µM
CC(C)c1ccc(NC(=O)c2cc(Cl)ccc2N)cc1 | - | - | MIC | - | My 331/88 | - | - | 16 µM
CCN1CCCC(NP2(=O)OCC(C)([N+](=O)[O-])CO2)C1 | - | - | inhibition | resazurin | H37Rv | - | 6.25 µg/mL | 9%
CCCCCCCCCCCCC(C(=O)O)c1ccccc1 | - | - | MIC | - | - | - | - | 10 µM
NNC(=O)c1cc(NN)ccn1 | - | - | MIC bound | BACTEC | H37Rv | - | - | >6.25 µg/mL
CN[C@@H]1[C@H](O[C@H]2[C@H](O[C@H]3[C@H](O)[C@@H](O)[C@H](N=C(N)N)[C@@H](O)[C@@H]3N=C(N)N)O[C@@H](C)[C@]2(O)C=O)O[C@@H](CO)[C@H](O)[C@H]1O | - | - | MIC | turbidity | H37Rv | - | - | 3.1 µg/mL
O=C(O)CCC(=O)Nc1ccc(C(=O)Oc2ccccc2)c(O)c1 | - | - | MIC | - | H37Rv | - | - | 0.5 µg/mL
CCc1nc2ccccc2n1CCCCOc1ccc2sc(C)nc2c1 | - | - | MIC90 | turbidity / fluorescence | H37Rv-MA | - | - | 2.7 µM
COC(=O)c1ccc(N)cc1O | - | - | MIC | - | H37Rv | - | - | 20 µg/mL
C[n+]1ccc(Nc2ccc(NC(=O)c3ccc(Nc4cc[n+](C)c5ccc([N+](=O)[O-])cc45)cc3[N+](=O)[O-])cc2)cc1 | - | - | inhibition | resazurin | H37Rv | - | 6.25 µg/mL | 100%
CCCn1c(=O)c2c3c(cnc2n(CCC)c1=O)C(=O)C1=C(C3=O)C2CCC1CC2 | - | - | EC99 | luminescence | H37Rv | pSMT1 luciferase reporter plasmid | - | 7.34 µg/mL
CCCCCCCCS(=O)(=O)CC(N)=O | - | - | MIC | - | 1H1337 | - | - | ≤6.25 µg/mL
CCCCn1c(=O)c2c3c(cnc2n(CCCC)c1=O)C(=O)C1=C(C3=O)C2CCC1CC2 | - | - | EC99 | luminescence | H37Rv | pSMT1 luciferase reporter plasmid | - | 9.6 µg/mL
CC(=O)OC1C2=C(C(=O)C(=O)C(C(C)C)=C2O)[C@@]2(C)CCCC(C)(C)[C@@H]2[C@@H]1OC(C)=O | - | - | MIC100 | MTT | MDR | - | - | 12.5 µg/mL
C=CC1=C(C)C2=NC1=CC1=NC(=CC3=C(C)C4=C(O)C(C(=O)OC)C(=C5NC(=C2)C(C)C5CCC(=O)OC)C4=N3)C(CC)=C1C | - | - | MIC | BACTEC | H37Rv | - | - | ≥12.5 µg/mL
O=C1CN(/N=C/c2ccc([N+](=O)[O-])o2)C(=O)N1 | - | - | MIC | turbidity | H37Rv | - | - | 50 µg/mL
CCc1nc2ccc(C)cc2n1CCCCNc1ccccc1 | - | - | MIC90 | turbidity / fluorescence | H37Rv-MA | - | - | 0.79 µM
CCCCCCCC(CCCCCCC)CC(=O)O | - | - | MIC | - | - | - | - | >1000 µM
Cc1cccc(OC(=O)c2ccc(NC(=O)CCC(=O)O)cc2O)c1 | - | - | MIC | - | H37Rv | - | - | 0.5 µg/mL
C#CCNC1=C(C)C(=O)C2=C(C1=O)[C@@H](COC(N)=O)[C@@]1(OC)[C@H]3N[C@H]3CN21 | VERO | - | MIC | - | H37Rv | - | - | 6.25 µg/mL
Cc1ccccc1OC(=O)c1ccc(NC(=O)c2ccccc2C(=O)O)cc1O | - | - | MIC | - | H37Rv | - | - | 0.25 µg/mL
O=C(NCC(=O)N1CCN(c2ccc(N3C[C@H](Cn4ccnn4)OC3=O)cc2F)CC1)c1cccnc1 | - | - | MIC | broth dilution / visual reading | SRI 1369 | Isoniazid-resistant | - | 2 µM
CCCCCn1c(=O)c2c3c(cnc2n(CCCCC)c1=O)C(=O)C1=C(C3=O)C2CCC1CC2 | - | - | EC99 | luminescence | H37Rv | pSMT1 luciferase reporter plasmid | - | 13.37 µg/mL
COC(=O)c1c(C)cc(O)cc1O | - | - | MIC | - | H37Rv (ATCC 27294) | - | - | >128 µg/mL
Nc1ccc(Cl)cc1C(=O)Nc1ccc(Cl)cc1 | - | - | MIC | - | My 331/88 | - | - | 31 µM
C[C@@H]1CC[C@@]2(OC1)O[C@H]1C[C@H]3[C@@H]4CC=C5C[C@@H](O[C@@H]6O[C@H](CO)[C@@H](O[C@@H]7O[C@@H](C)[C@H](O[C@@H]8O[C@@H](C)[C@H](O)[C@@H](O)[C@H]8O)[C@@H](O)[C@H]7O)[C@H](O)[C@H]6O[C@@H]6O[C@@H](C)[C@H](O)[C@@H](O)[C@H]6O)CC[C@]5(C)[C@H]4CC[C@]3(C)[C@H]1[C@@H]2C | - | - | inhibition | BACTEC | H37Rv | - | 12.5 µg/mL | -2%
O=C(O)/C=C\C(=O)Nc1ccc(C(=O)Oc2ccccc2)c(O)c1 | - | - | MIC | - | H37Rv | - | - | 0.25 µg/mL
CC(=O)O[C@H]1C2=C(C(=O)C(C(=O)Oc3ccc(Cl)cc3)=C(C(C)C)C2=O)[C@@]2(C)CCCC(C)(C)[C@@H]2[C@@H]1O | - | - | MIC100 | MTT | MDR | - | - | 0.78 µg/mL
Cc1ccc(-n2nnc3ccccc3c2=O)cc1 | - | - | MIC | - | My 331/88 | - | - | >500 µM
CCCCCCc1ccc(NC(=O)c2cc(Br)ccc2O)cc1 | - | - | MIC | - | My 331/88 | - | - | 16 µM
Cc1cc(=O)c2c3c(ccc2[nH]1)Oc1ccccc1O3 | - | - | inhibition | BACTEC | H37Rv | - | 12.5 µg/mL | -13%
Cc1nc2scc(-c3ccco3)c2c(=O)n1/N=C/c1ccc(F)cc1 | - | - | MIC | - | CNCTC MY331/88 | - | - | 9 µM
CC(=O)O[C@H]1C2=C(C(=O)C(C(=O)Oc3ccc(Cl)cc3)=C(C(C)C)C2=O)[C@@]2(C)CCCC(C)(C)[C@@H]2C1C(=O)Oc1ccc(Cl)cc1 | - | - | MIC100 | MTT | MDR | - | - | >25 µg/mL
CCC[C@@H]1C[C@@H](C(=O)N[C@@H]([C@H]2O[C@H](SC)[C@H](O)[C@@H](O)[C@H]2O)[C@@H](C)O)N(C)C1 | - | - | MIC | turbidity | H37Rv | - | - | >200 µg/mL
Cc1cccc(OC(=O)c2ccc(NC(=O)/C=C\C(=O)O)cc2O)c1 | - | - | MIC | - | H37Rv | - | - | 0.125 µg/mL
Cc1ccc(C=C(C#N)C#N)o1 | - | - | inhibition | BACTEC | H37Rv | - | 12.5 µg/mL | 71%
CC(C)N=c1cc2n(-c3ccc(Cl)cc3)c3ccccc3nc-2cc1Nc1ccc(Cl)cc1 | - | - | MIC90 | turbidity / fluorescence | H37Rv-LP | - | - | 0.21 µM
CC(C)=CCCC(C)CCC1(C)SC(=O)C(C)=C1O | - | - | MIC50 | - | H37Rv | - | - | 43 µM
NC(=O)c1cnccn1 | - | - | MIC | resazurin / fluorescence | H37Rv | - | - | 1.25 µg/mL
Cc1nc2scc(-c3ccco3)c2c(=O)n1/N=C/C1CC1 | - | - | MIC | - | CNCTC MY331/88 | - | - | 66 µM
O=C1Oc2ccccc2C(=O)Oc2ccccc2C(=O)Oc2ccccc2C(=O)Oc2ccccc21 | - | - | inhibition | BACTEC | H37Rv | - | 12.5 µg/mL | 5%
CC1=C(O)C(C)(CCC(C)CCCC(C)C)SC1=O | - | - | MIC90 | - | H37Rv | - | - | 29 µM
NC(=O)c1nccnc1NCc1cccc(C(F)(F)F)c1 | - | - | MIC | resazurin / fluorescence | H37Rv | - | - | 42 µM
CNC(=O)ON(C(C)=O)C(=O)NC | - | - | MIC bound | BACTEC | H37Rv | - | - | >12.5 µg/mL
CC(C)=CCC/C(C)=C/CC1(C)SC(=O)C(C)=C1O | - | - | MIC50 | - | H37Rv | - | - | 96 µM
COc1ccc(CC2=CC(=O)C(C)=CC2=O)cc1 | - | - | MIC | BACTEC | H37Rv | - | - | 16 µg/mL
CC(C)C1=C(O)C2=C(C(=O)C1=O)[C@@]1(C)CCCC(C)(C)C1[C@H](O)[C@H]2O | - | - | MIC100 | MTT | MDR | - | - | 12.5 µg/mL
CC(C)=CCC1(C)SC(=O)C(C)=C1O | - | - | MIC90 | - | H37Rv | - | - | >300 µM
CCCCc1ccc(NC(=O)c2ccc(Cl)cc2O)cc1 | - | - | MIC | - | My 331/88 | - | - | 4 µM
COc1ccc([C@H]2OC(=O)C3C2C(=O)O[C@@H]3c2ccc(OC)cc2)cc1 | - | - | MIC bound | BACTEC | H37Rv | - | - | >12.5 µg/mL
NNC(=O)c1ccncc1 | - | - | MIC | - | 19 isolates drug-susceptible | - | - | 0.1 µg/mL
NC[C@H]1O[C@H](O[C@H]2[C@H](O)[C@@H](O[C@H]3O[C@H](CO)[C@@H](O)[C@H](N)[C@H]3O)[C@H](N)C[C@@H]2N)[C@H](N)C[C@@H]1O | - | - | MIC | turbidity | H37Rv | - | - | 6.3 µg/mL
CCCCOC(=O)c1ccc(NC(=O)/C=C\C(=O)O)cc1O | - | - | MIC | - | H37Rv | - | - | 20 µg/mL
CCCCCCCCCCCCCCCCCCCCCCCCC(=O)OCCc1ccc(O)cc1 | - | - | MIC | - | H37Rv (ATCC 27294) | - | - | >128 µg/mL
C/C=C(/C)C(=O)OC1CC(C)(C)CC2C3=CCC4C5(C)CC[C@H](O)C(C)(C)C5CC[C@@]4(C)[C@]3(C)CC[C@@]12C(=O)O | - | - | MIC | - | H37Rv (rifampicin-resistant) | - | - | 50 µg/mL
Cc1nc2scc(-c3ccco3)c2c(=O)n1/N=C/c1ccc(F)cc1F | - | - | MIC | - | CNCTC MY331/88 | - | - | 4 µM
CC(=O)O[C@H]1C2=C(C(=O)C(C(=O)Oc3ccc([N+](=O)[O-])cc3)=C(C(C)C)C2=O)[C@@]2(C)CCCC(C)(C)[C@@H]2[C@@H]1O | - | - | MIC100 | MTT | H37Rv | - | - | >25 µg/mL
Cc1cc(=O)n2c(nc3cc(C)c(C)cc32)s1 | - | - | MIC bound | resazurin | H37Rv | - | - | >6.25 µg/mL
CCCCCCCCCCCCCCCCCCCCCCCC(=O)OCCc1ccc(O)cc1 | - | - | MIC | - | H37Rv (ATCC 27294) | - | - | 64 µg/mL
Cc1c(N=Nc2ccc(Br)cc2)c(-c2ccccc2)nn1C(=S)S | - | - | MIC | - | KM-R | - | - | 12.5 µg/mL
CC(=O)O[C@H]1C2=C(C(=O)C(OC(=O)c3ccccc3)=C(C(C)C)C2=O)[C@@]2(C)CCCC(C)(C)[C@@H]2[C@@H]1OC(=O)c1ccccc1 | - | - | MIC100 | MTT | H37Rv | - | - | >25 µg/mL
CC(C)Cn1c(=O)c2c3c(cnc2n(CC(C)C)c1=O)C(=O)C1=C(C3=O)C2CCC1C2 | - | - | EC90 | luminescence | H37Rv | pSMT1 luciferase reporter plasmid | - | 5.3 µg/mL
CCC(C)c1ccc(NC(=O)c2cc(Cl)ccc2N)cc1 | - | - | MIC | - | My 331/88 | - | - | 31 µM
Cc1nc2scc(-c3ccco3)c2c(=O)n1/N=C/C1CCCCC1 | - | - | MIC | - | CNCTC MY331/88 | - | - | 62 µM
CCCCCCCCCCCCCCCCCCCCCC(=O)OCCc1ccc(OC)cc1 | - | - | MIC | - | H37Rv (ATCC 27294) | - | - | >128 µg/mL
CC(=O)C(C(c1ccccc1)N1CCCc2ccccc21)N1CCOCC1 | - | - | inhibition | BACTEC | H37Rv | - | 12.5 µg/mL | 8%
CCCCCCCCCCCCCCCCCCC(=O)OCCc1ccc(OC)cc1 | - | - | MIC | - | H37Rv (ATCC 27294) | - | - | >128 µg/mL
Cc1ccccc1OC(=O)c1ccc(N)cc1O | - | - | MIC | - | H37Rv | - | - | 0.0313 µg/mL
NC1CCN(c2c(F)cc3c(=O)c(C(=O)O)cn(C4CC4)c3c2Cl)C1 | Macrophages | inside macrophages | EC50 | - | H37Rv | - | - | <0.1 µg/mL
CCOc1cnn(-c2ccccc2)c(=O)c1SCc1ccc(Cl)c(Cl)c1 | - | - | inhibition | BACTEC | H37Rv | - | 12.5 µg/mL | 26%
CCCc1ccc(NC(=O)c2cc(Cl)ccc2O)cc1 | - | - | MIC | - | My 331/88 | - | - | 2 µM
CCc1nc2ccccc2n1CCCCOc1ccc(C)c(Cl)c1 | - | - | MIC90 | turbidity / fluorescence | H37Rv-MA | - | - | 1.6 µM
COc1ccccc1N/N=c1\c2nc3ccccc3nc1n(-c1ccccc1C)c(=S)n2-c1ccccn1 | - | - | MIC | BACTEC | H37Rv | - | - | ≥12.5 µg/mL
CCCCCCCCCCCCCCCCCC(=O)OCCc1ccc(OC)cc1 | - | - | MIC | - | H37Rv (ATCC 27294) | - | - | >128 µg/mL
Cc1nc2scc(-c3ccco3)c2c(=O)n1N | - | - | MIC | - | CNCTC MY331/88 | - | - | 482 µM
O=C(NCC(=O)N1CCN(c2ccc(N3C[C@H](Cn4ccnn4)OC3=O)cc2F)CC1)C1=CC=C([N+](=O)[O-])C1 | - | - | inhibition | broth dilution / visual reading | SRI 4000 | Ofloxacin-resistant | 0.03 µM | 56%

Again, the opening 6 rows:

SMILES	cell line	setting	endpoint	read by	strain	mutations	tested at	result
Cc1nc2scc(-c3ccco3)c2c(=O)n1NC(=O)c1ccc(Cl)cc1	-	-	MIC	-	CNCTC MY331/88	-	-	9 µM
COC(=O)n1c(=O)nc2c3c(ncn21)Oc1c(c(-c2ccccc2)nn1-c1ccccc1)C3c1ccc(Cl)cc1	VERO	-	MIC	resazurin	H37Rv	-	-	6.25 µg/mL
COc1ccc(/C=N/n2c(C)nc3scc(-c4ccco4)c3c2=O)cc1	-	-	MIC	-	CNCTC MY331/88	-	-	14 µM
S=C1SCN(CCc2c[nH]c3ccccc23)CN1CCc1c[nH]c2ccccc12	-	-	MIC bound	BACTEC	H37Rv	-	-	>12.5 µg/mL
CCC(C(=O)O)c1ccccc1	-	-	MIC	-	-	-	-	>1000 µM
CC(C)c1ccc(NC(=O)c2cc(Cl)ccc2N)cc1	-	-	MIC	-	My 331/88	-	-	16 µM